According to paper PMC7990223:

Assays:
[1] = target: mACE2 (F83Y/H353K) (mouse) (UniProt Q8R0I0)
[2] = target: mACE2 (H353K) (mouse) (UniProt Q8R0I0)
[3] = target: kACE2 (T31K/F83Y) (koala)
[4] = target: kACE2 (T31K) (koala)

## S1 domain of the SARS-CoV-2 spike C-terminally fused with Fc (from UniProt P0DTC2 14-685)
[1]
  percent of ACE2-expressing (zsGreen1+) cells positive for S1-Fc: 83.9%
[2]
  percent of ACE2-expressing (zsGreen1+) cells positive for S1-Fc: 50.3%
[3]
  percent of ACE2-expressing (zsGreen1+) cells positive for S1-Fc: 92.1%
[4]
  percent of ACE2-expressing (zsGreen1+) cells positive for S1-Fc: 73.8%
